PubChem BioAssay AID624099, ICCB-Longwood – 2012

Test: 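Host factors E2 relies on to silence an HPV18 LCR reporter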 (primary screen)
System: human C33A cervical carcinoma cells (HPV-negative) stably expressing BPV1 E2 and an HPV18 LCR luciferase reporter
Knock-down reagent: siRNA pool against human genes, 40 nM
Duration: 72 h
Measurement: 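HPV18 LCR reporter light per well, converted to plate-wise z-scores that exclude control wells, and averaged over triplicate plates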
Scale: mean z-score and z-score: higher = stronger reporter signal, weaker E2 silencing
Hit rule: 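Mean z ≥ 2 together with z ≥ 2 in two or more of the three replicates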
Here is a random part of about 21,000 reagents. In the full data, 497 (2.4%) were called active. 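Higher z means weaker E2 silencing; only reporter increases were scored, and knock-downs that hurt cell survival may mask genuine repressor factors.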 A number with no mark means an inactive call. Reagents against one gene are numbered here. No sequences are given here.

no.	gene	reagent	mean z-score	z-score, replicate A	z-score, replicate B	z-score, replicate C
1	NSMCE3 (NSE3 component of SMC5/6 complex)	1	0.85	1.12	0.91	0.51
2	C1QA (complement C1q A chain)	1	0.17	0.17	0.14	0.21
3	IFT52 (intraflagellar transport 52)	1	-0.18	-0.29	-0.38	0.13
4	ANGPTL5 (angiopoietin like 5)	1	-0.33	0	-0.56	-0.44
5	LCN15 (lipocalin 15)	1	0.55	0.57	0.64	0.45
6	TREX2 (three prime repair exonuclease 2)	1	1.69	1.85	1.82	1.41
7	LOC401518 (retired record)	1	0.06	0.06	0.22	-0.11
8	ZNF557 (zinc finger protein 557)	1	1.37	1.26	1.6	1.25
9	NEDD1 (NEDD1 gamma-tubulin ring complex targeting factor)	1	-0.37	-0.51	-0.16	-0.44
10	POLE4 (DNA polymerase epsilon 4, accessory subunit)	1	-0.24	-0.46	-0.21	-0.03
11	LOC389534 (retired record)	1	-0.47	-0.26	-0.71	-0.42
12	SLC35F2	1	1.62	1.51	1.46	1.87
13	LINC01801 (long independently transcribed non-coding RNA 1801)	1	-0.8	-0.9	-0.61	-0.88
14	APOE (apolipoprotein E)	1	-2.06	-1.98	-2.15	-2.05
15	GNL3 (G protein nucleolar 3)	1	0.19	0.14	0.27	0.16
16	TFEB (transcription factor EB)	1	-0.64	-0.76	-0.41	-0.75
17	GABRD (gamma-aminobutyric acid type A receptor subunit delta)	1	0.51	0.39	0.69	0.44
18	ESPNP (espin pseudogene)	1	0.13	0.01	0.22	0.17
19	CA1 (carbonic anhydrase 1)	1	-0.31	-0.41	-0.27	-0.25
20	KIAA1143	1	-0.32	-0.32	-0.44	-0.18
21	LOC401407 (retired record)	1	-0.29	-0.18	-0.22	-0.45
22	MOB1A (MOB kinase activator 1A)	1	-0.57	-0.36	-1.02	-0.35
23	BEX1 (brain expressed X-linked 1)	1	0.88	0.59	1.07	1
24	EFNA1 (ephrin A1)	1	-0.25	-0.24	-0.17	-0.35
25	LIMS1 (LIM zinc finger domain containing 1)	1	-1.73	-1.77	-1.86	-1.57
26	KIF3B (kinesin family member 3B)	1	-1.29	-1.37	-1.22	-1.28
27	CYLC1 (cylicin 1)	1	1.49	1.26	1.87	1.34
28	PRICKLE4 (prickle planar cell polarity protein 4)	1	-1.68	-1.88	-1.72	-1.44
29	SOX5 (SRY-box transcription factor 5)	1	0.81	0.83	0.67	0.93
30	ZNF878 (zinc finger protein 878)	1	0.17	0.25	0.07	0.18
31	ATP8A1 (ATPase phospholipid transporting 8A1)	1	1.64	1.45	1.61	1.88
32	MRPL23 (mitochondrial ribosomal protein L23)	1	0.9	0.62	1.07	1.02
33	LOC400662 (retired record)	1	-0.45	-0.39	-0.44	-0.52
34	SP7 (Sp7 transcription factor)	1	-2.94	-2.8	-3.15	-2.86
35	CYBRD1 (cytochrome b reductase 1)	1	-1.29	-1.21	-1.31	-1.34
36	LOC400987 (retired record)	1	0.61	0.43	0.6	0.8
37	RBIS (ribosomal biogenesis factor)	1	-0.04	-0.45	0.17	0.16
38	AMY2A (amylase alpha 2A)	1	-0.21	-0.16	-0.12	-0.34
39	FKBP9P1 (FKBP prolyl isomerase 9 pseudogene 1)	1	-1.26	-1.29	-1.19	-1.31
40	STAT1 (signal transducer and activator of transcription 1)	1	1.24	1.4	1.39	0.93
41	IKZF3 (IKAROS family zinc finger 3)	1	-0.87	-1.15	-0.65	-0.81
42	KRT6C (keratin 6C)	1	1.55	1.61	1.25	1.79
43	VOPP1 (VOPP1 WW domain binding protein)	1	0.27	0.4	0.89	-0.48
44	ZFP92 (ZFP92 zinc finger protein)	1	0.61	1.16	0.22	0.44
45	LOC387917 (retired record)	1	0.26	0.36	0.31	0.12
46	MIR100HG (mir-100-let-7a-2-mir-125b-1 cluster host gene)	1	0.2	-0.11	0.34	0.37
47	UGT1A10 (UDP glucuronosyltransferase family 1 member A10)	1	-0.85	-0.95	-0.98	-0.62
48	DICER1-AS1 (DICER1 antisense RNA 1)	1	0.95	1.16	1.02	0.67
49	NUDT13 (nudix hydrolase 13)	1	0.13	-0.01	0.59	-0.2
50	AHCY (adenosylhomocysteinase)	1	-1.77	-1.53	-1.54	-2.24
51	LOC389447 (retired record)	1	0.81	0.94	0.63	0.86
52	WIZ (WIZ zinc finger)	1	-0.5	-0.72	-0.63	-0.14
53	FGF6 (fibroblast growth factor 6)	1	-0.64	-0.64	-0.62	-0.67
54	DNAJA2 (DnaJ heat shock protein family (Hsp40) member A2)	1	-0.25	-0.35	-0.17	-0.23
55	LOC253883 (retired record)	1	0.33	0.4	-0.07	0.65
56	SLC6A14	1	0.55	0.7	0.69	0.27
57	QTMAN (queuosine-tRNA mannosyltransferase)	1	-1.03	-1.13	-0.98	-0.98
58	PCDHGA8 (protocadherin gamma subfamily A, 8)	1	0.77	0.53	0.94	0.83
59	SPMIP6 (sperm microtubule inner protein 6)	1	1.45	1.29	1.43	1.62
60	LINC00939 (long independently transcribed non-coding RNA 939)	1	0	0.01	0.12	-0.13
61	FH (fumarate hydratase)	1	0.3	0.45	0.38	0.07
62	PTPRH (protein tyrosine phosphatase receptor type H)	1	0.07	-0.04	0.09	0.17
63	FCRL6 (Fc receptor like 6)	1	0.16	-0.11	0.41	0.19
64	SRPK2 (SRSF protein kinase 2)	1	0.12	0.53	-0.13	-0.06
65	MIDEAS (mitotic deacetylase associated SANT domain protein)	1	0.74	0.76	0.82	0.63
66	PDCD10 (programmed cell death 10)	1	0.81	1.71	0.59	0.13
67	PNPLA6 (patatin like domain 6, lysophospholipase)	1	0.48	0.11	0.94	0.39
68	CNIH1 (cornichon family member 1)	1	-0.89	-1.06	-0.62	-1
69	CHAMP1 (chromosome alignment maintaining phosphoprotein 1)	1	-0.14	-0.35	-0.34	0.28
70	PAK3 (p21 (RAC1) activated kinase 3)	1	0.28	0.19	-0.05	0.7
71	HSPE1 (heat shock protein family E (Hsp10) member 1)	1	-1.07	-1.26	-0.97	-0.98
72	ZNF799 (zinc finger protein 799)	1	0.19	0.06	0.23	0.27
73	ZNF799 (zinc finger protein 799)	2	-0.96	-0.87	-1.04	-0.96

5 successive reagents from above:
no.	gene	reagent	mean z-score	z-score, replicate A	z-score, replicate B	z-score, replicate C
16	TFEB (transcription factor EB)	1	-0.64	-0.76	-0.41	-0.75
17	GABRD (gamma-aminobutyric acid type A receptor subunit delta)	1	0.51	0.39	0.69	0.44
18	ESPNP (espin pseudogene)	1	0.13	0.01	0.22	0.17
19	CA1 (carbonic anhydrase 1)	1	-0.31	-0.41	-0.27	-0.25
20	KIAA1143	1	-0.32	-0.32	-0.44	-0.18
